Measured values from several laboratories, pooled; numbers as filed in NIAID ChemDB.

Shared fields: target-level tests

An empty or dashed field is not shown. Percent inhibition refers to the dose given; in toxicity tests it is the harm to the cells. ICn is the concentration giving n% inhibition. Two numbers with a dash give a range or band. Lines come from different laboratories, so protocols vary.

smiles | protein | measure | organism | dose | result
CNC(=O)c1c(-c2ccc(F)cc2)oc2cc(N(C)S(C)(=O)=O)c(OCc3nnsc3Cl)cc12 | Nonstructural protein 5B | IC50 | Hepatitis C virus | - | ≤0.5 µM
CC[C@@H](C=O)NC(=O)[C@@H]1C[C@@H](OCc2noc(-c3ccccc3OC)n2)CN1C(=O)[C@@H](NC(=O)[C@@H](NC(=O)c1cnccn1)C(C)C)C(C)C | NS3 protease | Ki | Hepatitis C virus | - | 1–100 µM
COc1ccc(S(=O)(=O)Nc2cnn3c(C4CCCCC4)c(-c4ccc(OCc5ccccc5)cc4)cnc23)cc1 | RNA-dependent RNA polymerase | IC50 | Hepatitis C virus | - | >10 µM
O=C(O)c1nc(-c2sccc2NC(=O)C(c2ccccc2)c2ccccc2)[nH]c(=O)c1O | HCV polymerase | IC50 | Hepatitis C virus | - | <25 µM
CNC(=O)c1c(-c2ccc(F)cc2)oc2cc(-c3cc(COC(C)C)on3)c(OC)cc12 | Nonstructural protein 5B | IC50 | Hepatitis C virus | - | ≤0.5 µM
O=C(O)c1ccc2c(c1)nc(-c1ccc3nc(C(=O)Nc4ccc(Cl)cc4)ccc3c1)n2C1CCCCC1 | NS5B polymerase | inhibition | Hepatitis C virus | 33 µM | 99.45%
COc1nc(Nc2ccc3cn[nH]c3c2)nc(NN2CCOCC2)n1 | DNA polymerase | inhibition | Hepatitis B virus | 0.1 µg/mL | 44%
O=C(NC(CC1CCCCC1)C(=O)O)c1ccc2c(c1)nc(-c1ccc3nc(-c4ccccc4)cnc3c1)n2C1CCCCC1 | NS5B polymerase | inhibition | Hepatitis C virus | 100 µM | 97%
CC(C)Cc1cc(N(Cc2ccc(Cl)cc2Cl)C(C)C)c(C(=O)O)s1 | NS3 ATPase | IC50 | Hepatitis C virus | - | <5 µM
O=C(NCc1cccc(Cl)c1Cl)Nc1cscc1-c1nc(C(=O)O)c(O)c(=O)[nH]1 | HCV polymerase | IC50 | Hepatitis C virus | - | <25 µM
Cc1cc(-c2ccc3cc(-c4nc5cc(C(=O)O)ccc5n4C4CCCCC4)ccc3n2)c(-c2ccccc2)s1 | NS5B polymerase | inhibition | Hepatitis C virus | 100 µM | 98.07%
O=C(O)c1nc(-c2ccccc2NS(=O)(=O)c2ccccc2I)[nH]c(=O)c1O | HCV polymerase | IC50 | Hepatitis C virus | - | <100 µM
O=C(O)c1ccc2c(c1)nc(-c1ccc3nc(-c4cccnc4)ccc3c1)n2C1CCCCC1 | NS5B polymerase | inhibition | Hepatitis C virus | 33 µM | 72.35%
O=C(O)c1cc2ncc(-c3ccc(OCc4ccccc4)cc3)c(C3CCCCC3)n2n1 | RNA-dependent RNA polymerase | IC50 | Hepatitis C virus | - | 1–10 µM
CN(C(=O)c1sccc1Cl)c1cc(-c2ccccc2)sc1C(=O)O | NS3 ATPase | IC50 | Hepatitis C virus | - | 5–20 µM
COc1nc(NCCCn2ccnc2)nc(Nc2ccc3cn[nH]c3c2)n1 | DNA polymerase | inhibition | Hepatitis B virus | 1 µg/mL | 58%
CCN(CC)c1cc2oc(-c3ccc(F)cc3)c(C(=O)NC)c2cc1OC(C)C | Nonstructural protein 5B | IC50 | Hepatitis C virus | - | ≤0.5 µM
Cc1ccccc1S(=O)(=O)Nc1cc(-c2ccc(O)cc2)sc1C(=O)O | NS3 ATPase | IC50 | Hepatitis C virus | - | <5 µM
O=C(O)c1ccc2c(c1)nc(-c1ccc3nc(-c4ccc(F)cc4)c(-c4ccc(F)cc4)nc3c1)n2C1CCCCC1 | NS5B polymerase | inhibition | Hepatitis C virus | 100 µM | 99.86%
COc1nc(Nc2ccc3[nH]ncc3c2)nc(N2CCC(O)CC2)n1 | DNA polymerase | inhibition | Hepatitis B virus | 1 µg/mL | 43%
O=C(O)c1cc2nc(-c3ccc(Cl)cc3Cl)cc(-c3ccccc3)n2n1 | RNA-dependent RNA polymerase | IC50 | Hepatitis C virus | - | >10 µM
CC[C@@H](C=O)NC(=O)[C@@H]1C[C@@H](OCc2ccccc2)CN1C(=O)[C@@H](NC(=O)Cc1ccc(NC(=O)c2ccccc2)cc1)C(C)C | NS3 protease | Ki | Hepatitis C virus | - | >100 µM
O=C(O)c1cc2nc(-c3ccc(F)cc3)cc(-c3ccc(Cl)cc3)n2n1 | RNA-dependent RNA polymerase | IC50 | Hepatitis C virus | - | >10 µM
COc1nc(Nc2ccc3cn[nH]c3c2)nc(N2CCN(C(=O)c3cccnc3)CC2)n1 | DNA polymerase | inhibition | Hepatitis B virus | 1 µg/mL | 46%
O=C(NCc1ccccc1)Nc1ccsc1-c1nc(C(=O)O)c(O)c(=O)[nH]1 | HCV polymerase | IC50 | Hepatitis C virus | - | <25 µM
Fc1ccc(-c2cnc3c(-c4nn[nH]n4)cnn3c2C2CCCCC2)cc1F | RNA-dependent RNA polymerase | IC50 | Hepatitis C virus | - | 1–10 µM
CN(Cc1ccccc1)C(=O)Nc1ccsc1-c1nc(C(=O)O)c(O)c(=O)[nH]1 | HCV polymerase | IC50 | Hepatitis C virus | - | <25 µM
CNC(=O)c1c(-c2ccc(F)cc2)oc2cc(C(C)(C)NS(C)(=O)=O)c(OC)cc12 | Nonstructural protein 5B | IC50 | Hepatitis C virus | - | ≤0.5 µM
CC[C@H](NC(=O)[C@H](CC(C)C)NC(=O)[C@@H](NC(=O)[C@@H](NC(=O)[C@H](CC(=O)O)NC(=O)[C@@H](N)CCC(=O)O)C(C)C)C(C)C)C(=O)c1nccs1 | NS3 protease | Ki | Hepatitis C virus | - | 1–100 µM
COc1cccc(-c2cc(-c3cccc(Cl)c3)nc3cc(C(=O)O)nn23)c1 | RNA-dependent RNA polymerase | IC50 | Hepatitis C virus | - | >10 µM
O=C(Nc1ccccc1-c1nc(C(=O)O)c(O)c(=O)[nH]1)NC1CC1c1ccccc1 | HCV polymerase | IC50 | Hepatitis C virus | - | <100 µM
COc1nc(Nc2ccc3cn[nH]c3c2)nc(NC2CC2)n1 | DNA polymerase | inhibition | Hepatitis B virus | 0.01 µg/mL | 3%
CN(C)c1cc(-c2ccccc2)nc2ccc(-c3nc4cc(C(=O)O)ccc4n3C3CCCCC3)cc12 | NS5B polymerase | inhibition | Hepatitis C virus | 100 µM | 96.74%
CC[C@@H](C=O)NC(=O)[C@@H]1C[C@@H](OCc2ccccc2)CN1C(=O)[C@@H](NC(=O)CCOc1ccccc1)C(C)C | NS3 protease | Ki | Hepatitis C virus | - | >100 µM
COc1nc(NCCCN2CCCC2=O)nc(Nc2ccc3[nH]ncc3c2)n1 | DNA polymerase | inhibition | Hepatitis B virus | 1 µg/mL | 60%
Cc1cccc(-c2cc(NS(=O)(=O)c3ccccc3C)c(C(=O)O)s2)c1 | NS3 ATPase | IC50 | Hepatitis C virus | - | <5 µM
COC(=O)c1nc(-c2ccc(-c3sccc3NC(=O)CCC(=O)O)cc2)[nH]c(=O)c1O | HCV polymerase | IC50 | Hepatitis C virus | - | <50 µM
O=C(O)c1cnn2c(C3CCCCC3)c(-c3ccc(Cl)cc3Cl)cnc12 | RNA-dependent RNA polymerase | IC50 | Hepatitis C virus | - | 1–10 µM
Nc1ccc(-c2ccc3cc(-c4nc5cc(C(=O)O)ccc5n4C4CCCCC4)ccc3n2)cc1 | NS5B polymerase | inhibition | Hepatitis C virus | 100 µM | 95.33%
Cc1ccccc1S(=O)(=O)Nc1cc(/C=C/c2ccccc2)sc1C(=O)O | NS3 ATPase | IC50 | Hepatitis C virus | - | <5 µM
CNC(=O)C1CCN(c2nc(Nc3ccc4[nH]ncc4c3)nc(OC)n2)CC1 | DNA polymerase | IC50 | Hepatitis B virus | - | >1 µg/mL
O=C(NC(Cc1c[nH]c2ccc(O)cc12)C(=O)O)c1ccc2c(c1)nc(-c1ccc3ncc(-c4ccccc4)cc3c1)n2C1CCCCC1 | NS5B polymerase | inhibition | Hepatitis C virus | 33 µM | 97.6%

Again, the opening 6 rows:

smiles | protein | measure | organism | dose | result
CNC(=O)c1c(-c2ccc(F)cc2)oc2cc(N(C)S(C)(=O)=O)c(OCc3nnsc3Cl)cc12 | Nonstructural protein 5B | IC50 | Hepatitis C virus | - | ≤0.5 µM
CC[C@@H](C=O)NC(=O)[C@@H]1C[C@@H](OCc2noc(-c3ccccc3OC)n2)CN1C(=O)[C@@H](NC(=O)[C@@H](NC(=O)c1cnccn1)C(C)C)C(C)C | NS3 protease | Ki | Hepatitis C virus | - | 1–100 µM
COc1ccc(S(=O)(=O)Nc2cnn3c(C4CCCCC4)c(-c4ccc(OCc5ccccc5)cc4)cnc23)cc1 | RNA-dependent RNA polymerase | IC50 | Hepatitis C virus | - | >10 µM
O=C(O)c1nc(-c2sccc2NC(=O)C(c2ccccc2)c2ccccc2)[nH]c(=O)c1O | HCV polymerase | IC50 | Hepatitis C virus | - | <25 µM
CNC(=O)c1c(-c2ccc(F)cc2)oc2cc(-c3cc(COC(C)C)on3)c(OC)cc12 | Nonstructural protein 5B | IC50 | Hepatitis C virus | - | ≤0.5 µM
O=C(O)c1ccc2c(c1)nc(-c1ccc3nc(C(=O)Nc4ccc(Cl)cc4)ccc3c1)n2C1CCCCC1 | NS5B polymerase | inhibition | Hepatitis C virus | 33 µM | 99.45%